Results of unrelated studies side by side (data: NIAID ChemDB).

All rows: whole-cell or culture tests; organism: Mycobacterium tuberculosis

ECn: concentration that inhibits the pathogen or its effect by n%.

compound,read-out,method,strain,cells,tested at,result
Fc1ccccc1N/N=C\c1cc(C2C3CC4CC(C3)CC2C4)nc2ccccc12,inhibition,BACTEC,H37Rv,,6.25 µg/mL,93%
CN(C)CCCOc1ccc(Nc2ncc(-c3cccc(F)c3)nc2C(N)=O)cc1,MIC,resazurin,H37Rv (ATCC 27294),,,16 µg/mL
COc1cc(/C=C/C(=O)n2c(=O)c(=O)[nH]c3ccccc32)ccc1O,MIC,resazurin,H37Rv,,,10.8 µg/mL
CN(C)CCCOc1cccc(Nc2nccnc2C(N)=O)c1,MIC,resazurin,H37Rv (ATCC 27294),,,>32 µg/mL
Cc1[nH]c2ccccc2c1C=O,MIC bound,BACTEC,H37Rv,,,>6.25 µg/mL
O=C(CCC(F)(F)F)N1CCC(c2ccc(F)nc2)CC1,EC50,fluorescence,H37Rv,THP-1,,0.05–0.25 µM
NC(=S)Nc1c(O)cccc1O,MIC,,A67,,,2 µM
Cc1c(N=CN(C)C)c(=O)n(-c2ccccc2)n1C,MIC,BACTEC,H37Rv,,,≥12.8 µg/mL
O=C(Nc1ccc(F)cc1)c1cc(Br)ccc1O,MIC,,CNCTC MY331/88,,,8 µM
O=C(O)COc1ccc(C2C(Oc3ccc(Cl)cc3)C(=O)N2c2ccc(Cl)c(F)c2)cc1,inhibition,resazurin,H37Rv,,6.25 µg/mL,100%
COC(=O)c1nc(-c2cccc(F)c2)cnc1Nc1ccc(OCCCN(C)C)cc1,MIC,resazurin,H37Rv (ATCC 27294),,,32 µg/mL
Fc1cccc(N/N=C/c2ccc3ccccc3n2)c1,inhibition,BACTEC,H37Rv,,6.25 µg/mL,97%
O=c1[nH]c2ccccc2n(Cn2nnc3ccccc32)c1=O,MIC,resazurin,H37Rv,,,10.8 µg/mL
O=C(O)COc1ccc(C2C(Oc3ccccc3)C(=O)N2c2ccc(Cl)c(F)c2)cc1,MIC90,resazurin,H37Rv,,,>6.25 µg/mL
O=C(CCC(F)(F)F)N1CCC(c2cccc(C(F)(F)F)n2)CC1,EC50,fluorescence,H37Rv,THP-1,,0.05–0.25 µM
Fc1ccc(N/N=C\c2cc(C3CCCCC3)nc3ccccc23)cc1,inhibition,BACTEC,H37Rv,,6.25 µg/mL,0%
O=C(CCC(F)(F)F)N1CCC(c2ccc(F)cn2)CC1,EC50,fluorescence,H37Rv,THP-1,,0.05–0.25 µM
Cc1ccc(-c2cnc(Nc3ccc(OCCCN4CCN(C)CC4)nc3)c(C(N)=O)n2)cc1F,MIC,resazurin,H37Rv (ATCC 27294),,,0.5 µg/mL
O=C1c2cc(I)ccc2-n2c1nc1c(Br)cc(Br)c(Cl)c1c2=O,MIC,,H37Rv,,,0.25 µg/mL
Cc1cc2cc3c(C)cc(=O)oc3c(C)c2o1,inhibition,BACTEC,H37Rv,,12.8 µg/mL,8%
CCOC(=O)c1c(-c2ccc(OC)cc2)oc2ccc(OCCCCCN3C(=O)/C(=N/OC)c4ccccc43)cc12,MIC,,H37Rv,,,<0.049 µg/mL
C=C(NC(=O)c1cnccn1)C(=O)OC,MIC,resazurin,H37Rv (ATCC 27294),,,100 µg/mL
N#Cc1ccnc(N2CCCCC2)c1,MIC,,331/81,,,500 µM
C#CCN1CCN(C(=S)N/N=C(/C)c2ccccn2)CC1,MIC bound,resazurin,H37Rv,,,>6.25 µg/mL
O=C1c2cc(OC(F)(F)F)ccc2-n2c1nc1ccncc1c2=O,MBC,,H37Rv,,,1 µg/mL
CC(=O)NC(C)CCC[C@@H](OC(C)=O)[C@@H](COC(C)=O)OC(C)=O,inhibition,agar,H37Rv,,25 µg/mL,100%
N#CCCCSc1cc(C(=N)N)ccn1,MIC,,331/81,,,>1000 µM
O=C(O)COc1ccc(C2C(Oc3ccc([N+](=O)[O-])cc3)C(=O)N2c2ccc(Cl)c(F)c2)cc1,MIC90,resazurin,H37Rv,,,3.13 µg/mL
Cc1ccc(-c2cnc(Nc3cccc(O)c3)c(C(N)=O)n2)cc1,MIC,resazurin,H37Rv (ATCC 27294),,,>32 µg/mL
CC(=O)NCCCC[C@H](OC(C)=O)[C@@H](COC(C)=O)OC(C)=O,inhibition,agar,H37Rv,,6.25 µg/mL,100%
CC(=O)N=c1ccc2nc3c(cc(N)c4ccccc43)oc-2c1.Cl,MIC bound,BACTEC,H37Rv,,,>12.5 µg/mL
Fc1cccc(N/N=C\c2ccnc3ccccc23)c1,inhibition,BACTEC,H37Rv,,6.25 µg/mL,0%
O=C(CCC(F)(F)F)N1CCC(c2cncc(F)c2)CC1,EC50,fluorescence,H37Rv,THP-1,,0.05–0.25 µM
CCOC(=O)CSc1ccnc(C#N)c1,MIC,,331/81,,,1000 µM
CC(=O)OC[C@@H](OC(C)=O)[C@H](/C=C/CC(C)[N+](=O)[O-])OC(C)=O,inhibition,agar,H37Rv,,12.5 µg/mL,100%
O=C1c2ccccc2-n2c1nc1cc(Cl)cc(Cl)c1c2=O,MIC,,H37Rv,,,4 µg/mL
Cc1ccc(-c2cnc(Nc3cnc(OCCCN4CCN(C)CC4)nc3)c(C(N)=O)n2)c(C)c1,MIC,resazurin,H37Rv (ATCC 27294),,,1 µg/mL
CC(=O)NCC(CC[C@H](OC(C)=O)[C@@H](COC(C)=O)OC(C)=O)OC(C)=O,inhibition,agar,H37Rv,,12.5 µg/mL,inactive
COC(=O)/C=C/C(=O)c1ccc(C(C)(C)C)cc1,MIC,,,,,0.8 µg/mL
CN(C)c1ccc(N=C2C=CC(=O)C(Cl)=C2)cc1,MIC bound,resazurin,H37Rv,,,>6.25 µg/mL
N#Cc1cc(SCC(=O)NN)ccn1,MIC,,331/81,,,1000 µM
NC(=O)C(=O)N/N=C(\CC1(O)C(=O)Nc2ccccc21)c1ccc2ccccc2c1,MIC,BACTEC,H37Rv,,,≥12.5 µg/mL
O=C(NC12CC3CC(CC(C3)C1)C2)c1cc(=O)c2c(Br)cccc2[nH]1,MIC,visual reading / absorbance,H37Rv,,,9.97 µM
N#Cc1ccc(NC(=O)c2cc(Br)ccc2O)cc1,MIC,,CNCTC MY331/88,,,4 µM
O=C(C(O)CO)N1CC=C(c2c(F)cc(N3CC(COc4ccon4)OC3=O)cc2F)CC1,MIC,resazurin,ss18b,,,0.4 µg/mL
NC(=S)Nc1ccccc1O,MIC,,A67,,,31.25 µM
O=C(O)COc1ccc(C2C(Oc3ccc(Cl)cc3Cl)C(=O)N2c2ccc(Cl)c(F)c2)cc1,inhibition,resazurin,H37Rv,,6.25 µg/mL,100%
O=C(Nc1ccc(Br)cc1)c1cc(F)ccc1O,MIC,,CNCTC MY331/88,,,8 µM
O=c1[nH]nc(NCCO)c2ccccc12,inhibition,BACTEC,,,0.5 µM,0%
O=C1c2cc(Cl)ccc2-n2c1nc1cnccc1c2=O,MIC,,H37Rv,,,0.06 µg/mL
COc1ccccc1NC(N)=S,MIC,,A67,,,250 µM
CC(=O)NC(C)CCC[C@H](OC(C)=O)[C@@H](COC(C)=O)OC(C)=O,inhibition,agar,H37Rv,,6.25 µg/mL,inactive
OC[C@H]1O[C@@](CO)(O[C@H]2O[C@H](CO)[C@@H](O)[C@H](O)[C@H]2O)[C@@H](O[C@H]2O[C@H](CO)[C@@H](O)[C@H](O)[C@H]2O)[C@@H]1O,MIC bound,BACTEC,H37Rv,,,>12.5 µg/mL
CC(=O)NC(C)C(CC[C@@H](OC(C)=O)[C@@H](COC(C)=O)OC(C)=O)OC(C)=O,inhibition,agar,H37Rv,,25 µg/mL,inactive
CN[C@@H]1[C@H](O[C@H]2[C@H](O[C@H]3[C@H](O)[C@@H](O)[C@H](N=C(N)N)[C@@H](O)[C@@H]3N=C(N)N)O[C@@H](C)[C@]2(O)C=O)O[C@@H](CO)[C@H](O)[C@H]1O,MIC,,U108,,,64 µg/mL
NCCCNCCCCNCCCN,inhibition,BACTEC,H37Rv,,12.8 µg/mL,14%
C=C/C(C)=C/[C@@]1(C)SC(=O)C(C)=C1O,MIC,,PMH29:inhA,,,5 µg/mL
CC/C(=C(\c1ccccc1)c1ccc(OCCN(C)C)cc1)c1ccccc1,MIC,resazurin,INH-r,,,6.25–12.5 µg/mL
Cc1cc(C)c2cc(C(=O)NC3CCCCCC3)[nH]c2c1,MIC90,visual reading / absorbance,H37Rv,,,0.013 µM
CCC1CCC2CN(/N=C/c3c4c(O)c5c(O)c(C)c6c(c5c3O)C(=O)[C@@](C)(O/C=C/[C@H](OC)[C@@H](C)[C@@H](OC(C)=O)[C@H](C)[C@H](O)[C@H](C)[C@@H](O)[C@@H](C)/C=C/C=C(/C)C(=O)N4)O6)CCN2C1,MIC,,Rifampicin-resistant,,,>3 µg/mL
N#CCCSc1ccnc(C(N)=S)c1,MIC,,331/81,,,250 µM
CCCCCCCCc1ccc2c(c1)C(=O)c1nc3ccncc3c(=O)n1-2,MIC,,TN2557RFLF:P (MDR),,,<0.015 µg/mL
Cc1nn(C(=O)c2cccnc2)c(-c2ccccc2)c1N=Nc1ccc(S(=O)(=O)Nc2ncccn2)cc1,MIC bound,resazurin,H37Rv,,,>6.25 µg/mL
NC(=S)Nc1cccc(N)c1,MIC,,A67,,,500 µM
CCN(CC)CCCC(C)Nc1ncnc2ncc3c(c12)CCCC3,MIC bound,BACTEC,H37Rv,,,>12.5 µg/mL
Nc1ccc(S(=O)(=O)c2ccc(N)cc2)cc1,EC50,,,,,>16 µg/mL
O=C1c2cc(C3CCCCC3)ccc2-n2c1nc1ccncc1c2=O,MIC,,H37Rv,,,0.015 µg/mL
NC(=S)c1ccnc(SCC(O)CO)c1,MIC,,331/81,,,500 µM
NC(=S)Nc1ccc(Cl)cc1,MIC,,A67,,,250 µM
CN(C)C1C(=O)C(C(=O)NCNC2C(=O)N3C2SC(C)(C)C3C(=O)O)=C(O)C2(O)C(=O)C3=C(O)c4c(O)cccc4C(C)(O)C3CC12,inhibition,BACTEC,H37Rv,,12.5 µg/mL,33%
CC(=O)n1c(=O)c(=O)[nH]c2ccccc21,MIC,resazurin,H37Rv,,,8.561 µg/mL
Cc1nc2c3c(ncn2n1)Oc1c(c(-c2ccccc2)nn1-c1ccccc1)C3c1ccc(Cl)cc1,inhibition,resazurin,H37Rv,,6.25 µg/mL,1%
CC(=O)NCCCC[C@@H](OC(C)=O)[C@@H](COC(C)=O)OC(C)=O,inhibition,agar,H37Rv,,25 µg/mL,100%
CC[C@]12CN3CCc4c([nH]c5ccccc45)[C@@](C(=O)OC)(c4cc5c(cc4OC)N(C)[C@H]4[C@@](O)(C(=O)OC)[C@H](OC(C)=O)[C@]6(CC)C=CCN7CC[C@]54[C@@H]76)C[C@H](C3)[C@H]1O2,inhibition,BACTEC,H37Rv,,12.5 µg/mL,1%
N#Cc1cc(N2CCCCC2)ccn1,MIC,,331/81,,,1000 µM
O=C1c2c(Cl)cccc2-n2c1nc1ccccc1c2=O,MIC,,H37Rv,,,0.5 µg/mL
Cn1c(=O)nc2n(-c3ccc(F)c(F)c3)c3ccccc3nc-2c1=O,MIC bound,BACTEC,H37Rv,,,≤12.5 µg/mL
CCOC(=O)c1ccc(NC(=O)c2cc(C)ccc2O)cc1,MIC,,CNCTC MY331/88,,,>1000 µM
COc1ccc2c(c1)CCC1=C2C=C[P+]1(C)C,inhibition,resazurin,H37Rv,,6.25 µg/mL,85%
Cc1ccc(-c2cnc(Nc3cccc(OCCCN(C)C)c3)c(C(N)=O)n2)cc1,MIC,resazurin,H37Rv (ATCC 27294),,,4 µg/mL
Fc1ccccc1N/N=C/c1ccnc2ccccc12,inhibition,BACTEC,H37Rv,,6.25 µg/mL,0%
CC1(C)CCC2=C(O1)C(=O)c1ccccc1C2=O,inhibition,BACTEC,H37Rv,,12.5 µg/mL,75%
COc1ccc2cc(N)c3c(c2c1)OC(=O)CC3,MIC,resazurin / fluorescence,H37Rv,,,3.125 µg/mL
O=C1c2cccnc2-c2nccc3c2c1nc1ccccc13,MIC,BACTEC,H37Rv,,,0.1 µg/mL
N#CCCCSc1ccnc(C(=N)N)c1,MIC,,331/81,,,500 µM
COC1=CC(=O)C=C(CO)C1=O,MIC,BACTEC,H37Rv,,,≥12.5 µg/mL
Cc1ccc(C(=O)Nc2ccc(Cl)c(Cl)c2)c(O)c1,MIC,,CNCTC MY331/88,,,8 µM

For reference, 8 entries again:

compound,read-out,method,strain,cells,tested at,result
CC(=O)NCCCC[C@@H](OC(C)=O)[C@@H](COC(C)=O)OC(C)=O,inhibition,agar,H37Rv,,25 µg/mL,100%
NC(=S)Nc1cccc(N)c1,MIC,,A67,,,500 µM
Cn1c(=O)nc2n(-c3ccc(F)c(F)c3)c3ccccc3nc-2c1=O,MIC bound,BACTEC,H37Rv,,,≤12.5 µg/mL
N#CCCCSc1ccnc(C(=N)N)c1,MIC,,331/81,,,500 µM
O=C(Nc1ccc(F)cc1)c1cc(Br)ccc1O,MIC,,CNCTC MY331/88,,,8 µM
CCC1CCC2CN(/N=C/c3c4c(O)c5c(O)c(C)c6c(c5c3O)C(=O)[C@@](C)(O/C=C/[C@H](OC)[C@@H](C)[C@@H](OC(C)=O)[C@H](C)[C@H](O)[C@H](C)[C@@H](O)[C@@H](C)/C=C/C=C(/C)C(=O)N4)O6)CCN2C1,MIC,,Rifampicin-resistant,,,>3 µg/mL
Cc1ccc(-c2cnc(Nc3cccc(OCCCN(C)C)c3)c(C(N)=O)n2)cc1,MIC,resazurin,H37Rv (ATCC 27294),,,4 µg/mL
CN(C)CCCOc1ccc(Nc2ncc(-c3cccc(F)c3)nc2C(N)=O)cc1,MIC,resazurin,H37Rv (ATCC 27294),,,16 µg/mL

MIC50, MIC90 and the like: level of inhibition, or share of isolates inhibited. Blank or dashed fields: not listed here. Percent inhibition refers to the dose given; in toxicity tests it is the harm to the cells. a–b is a range or a potency band. "inactive" is the filed call at that dose; no cut-off is given. MIC bound comes from a single tested concentration. Neighbouring rows are from separate reports.